Deep mutational scan of the Zika virus protease

Source: Ni et al. 2025 (doi:10.1038/s41467-025-63602-z), supplementary data.

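Pools of virus carrying all single amino acid changes were selected for growth in Huh-7.5 cells. Deep sequencing gave the change in frequency of each mutant relative to wild type, averaged over three replicate libraries (two for positions 207-308). The aim was to find sites where inhibitor-binding pockets cannot change.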

Protein: NS2B and the protease part of NS3 of Zika virus strain MR766. Positions count along the chain below; NS2B spans 2-131 and NS3 starts at 132.
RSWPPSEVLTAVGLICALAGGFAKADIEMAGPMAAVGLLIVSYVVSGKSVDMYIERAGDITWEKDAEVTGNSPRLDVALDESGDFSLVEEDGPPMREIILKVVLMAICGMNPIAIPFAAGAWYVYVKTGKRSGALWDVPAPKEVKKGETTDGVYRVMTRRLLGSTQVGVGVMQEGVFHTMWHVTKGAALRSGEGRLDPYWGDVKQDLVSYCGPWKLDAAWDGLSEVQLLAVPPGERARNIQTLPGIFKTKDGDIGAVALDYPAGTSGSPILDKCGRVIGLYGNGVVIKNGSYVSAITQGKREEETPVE

Scale: log2 effect, wild type = 0; the lower, the more harmful to the virus.
Each entry names the wild-type residue, its position and the residue put in its place.
All changes here are to cysteine.

| substitution | effect (log2) |
|---|---|
| I270C | -4.07 |
| L271C | -5.08 |
| D272C | -2.82 |
| K273C | -1.35 |
| G275C | -1.52 |
| R276C | -1.97 |
| V277C | -1.26 |
| I278C | -3.09 |
| G279C | -4.77 |
| L280C | -5.16 |
| Y281C | -5.59 |
| G282C | -4.31 |
| N283C | -5.27 |
| G284C | -4.82 |
| V285C | -5.20 |
| V286C | -5.11 |
| I287C | 1.07 |
| K288C | -4.98 |
| N289C | -5.15 |
| G290C | -5.70 |
| S291C | -2.02 |
| Y292C | -3.59 |
| V293C | -5.22 |
| S294C | -5.25 |
| A295C | -5.00 |
| I296C | -4.67 |
| T297C | -4.70 |
| Q298C | -4.90 |
| G299C | -4.15 |
| K300C | -3.78 |
| R301C | -1.39 |
| E302C | 0.94 |
| E303C | -0.94 |
| E304C | -0.54 |
| T305C | -0.59 |
| P306C | -0.38 |
| V307C | 0.16 |
| E308C | -0.15 |

Positions 1-103, 104-206 and 207-308 were made and measured as separate libraries.
Position 1 still belongs to NS2A. In the paper, -1 or higher counts as tolerated.
Six mutants with high scores were retested singly and none clearly outgrew wild type, so positive values are not proof of better growth.